Results of unrelated studies side by side (data: NIAID ChemDB).

All rows: tests in culture

A number after MIC or MFC names an inhibition level or a share of isolates. Conditions beyond the fields shown may differ between rows. Zone: diameter of growth inhibition. Percent inhibition refers to the dose given; in toxicity tests it is the harm to the cells. a–b is a range or a potency band. ECn is the concentration giving n% inhibition of infection, replication or growth. An empty or dashed field is not shown.

structure,organism,strain,method,setting,measure,tested at,value
CN[C@@H]1[C@H](O[C@H]2[C@H](O[C@H]3[C@H](O)[C@@H](O)[C@H](N=C(N)N)[C@@H](O)[C@@H]3N=C(N)N)O[C@@H](C)[C@]2(O)C=O)O[C@@H](CO)[C@H](O)[C@H]1O,Mycobacterium avium complex,N-251 (HIV-),-,-,MIC,-,8 µg/mL
CC(C)N[C@@H]1CCCC[C@H]1NC(C)C,Mycobacterium smegmatis,ATCC 607,-,-,inhibition,250 µg/mL,0%
O=C(NNC(=O)c1ccncc1)Nc1c(Cl)cc(Cl)cc1Cl,Mycobacterium kansasii,My 6509/96,broth dilution,21 d,MIC100,-,125 µM
CCCCCCCCCCCN(CCCCCCCCCCC)C(=O)NC(CCC(=O)O)(CCC(=O)O)CCC(=O)O,Mycobacterium chelonae,EO-P-1,-,-,MIC,-,72 µg/mL
Cc1nn(Cc2cn(CCCCCCCCCCn3cc(Cn4nc(C)n(/N=C/c5cccs5)c4=O)nn3)nn2)c(=O)n1/N=C/c1cccs1,Mycobacterium luteus,-,agar diffusion,-,zone,20 mg/mL,0.6 mm
CCCCCCCCN(CCCCCCCC)C(=O)NC(CCC(=O)O)(CCC(=O)O)CCC(=O)O,Mycobacterium marinum,ATCC 927,-,-,MIC,-,18 µg/mL
CCCCCCCC/C=C\CCCCCCCCN(C(=O)NCc1ccccc1)[C@@H](CC(=O)OCC)C1O[C@@H]2OC(C)(C)O[C@@H]2[C@H]1OC,Mycobacterium aurum,-,-,-,MIC,-,>25 µg/mL
CC1CN(c2ccc(CNC(=O)c3c(Cl)nc4ccccn34)cc2F)CC(C)O1,Mycobacterium ulcerans,-,fluorescence,-,MIC50,-,0.01–0.1 µg/mL
CCCCCCCCCCCCCCC(=O)NC(C)(CCC(=O)O)CCC(=O)O,Mycobacterium abscessus,AAy-P-1,-,-,MIC,-,144 µg/mL
Cc1ccc2oc(=O)n(-c3ccc(Cl)c(Cl)c3)c(=S)c2c1,Mycobacterium kansasii,6509/96,-,14 d,MIC,-,8 µM
NCC[C@H](O)C(=O)N[C@@H]1C[C@H](N)[C@@H](O[C@H]2O[C@H](CN)[C@@H](O)[C@H](O)[C@H]2O)[C@H](O)[C@H]1O[C@H]1O[C@H](CO)[C@@H](O)[C@H](N)[C@H]1O,Mycobacterium bolletii,-,broth dilution,-,MIC50,-,8 µg/mL
N[C@@H]1CONC1=O,Mycobacterium avium complex,14 strains,agar,-,inhibition,60 µg/mL,100%
CCCCCCCN1CCc2c(sc(NC(=O)c3c(F)c(F)c(F)c(F)c3F)c2C(=O)OCC)C1,Mycobacterium abscessus,-,turbidity,-,EC50,-,34 µM
Cc1nn(Cc2cn(CCn3cc(Cn4nc(C)n(/N=C/c5cccs5)c4=O)nn3)nn2)c(=O)n1/N=C/c1cccs1,Mycobacterium luteus,-,agar diffusion,-,zone,20 mg/mL,1.787 mm
CCN1CCc2c(sc(NC(=O)c3c(F)c(F)c(F)c(F)c3F)c2C(N)=O)C1,Mycobacterium abscessus,bolletii 103,resazurin / turbidity,-,EC50,-,>200 µM
Cc1nn(Cc2cn(CCCCCCCCn3cc(Cn4nc(C)n(/N=C/c5cccs5)c4=O)nn3)nn2)c(=O)n1/N=C/c1cccs1,Mycobacterium luteus,-,agar diffusion,-,zone,20 mg/mL,0.6 mm
O=C(NNC(=O)c1ccncc1)Nc1ccc(Cl)c(Cl)c1,Mycobacterium kansasii,My 235/80,broth dilution,21 d,MIC100,-,125 µM
CC(C)NC(C)C(C)NC(C)C,Mycobacterium smegmatis,ATCC 607,-,-,EC50,-,>1000 µg/mL
CCN1CCc2c(sc(NC(=O)c3c(F)c(F)c(F)c(F)c3F)c2C(=O)NC)C1,Mycobacterium abscessus,bolletii 103,resazurin / turbidity,-,MIC,-,>100 µM
C[C@@H]1CN(c2c(F)c(N)c3c(=O)c(C(=O)O)cn(C4CC4)c3c2F)C[C@H](C)N1,Mycobacterium phlei,ATCC 11758,broth dilution / visual reading,-,MIC,-,0.3 µg/mL
C=C(C)COc1ccc(-c2n[nH]c(C(F)(F)F)c2-c2ccccc2)c(O)c1,Mycobacterium marinum,-,visual reading,-,MIC,-,>50 µg/mL
CCNC(=O)c1c(NC(=O)c2c(F)c(F)c(F)c(F)c2F)sc2c1CCN(CC)C2,Mycobacterium abscessus,bolletii 103,resazurin / turbidity,-,EC90,-,>200 µM
COc1ccccc1-c1c(-c2ccc(OCc3ccc(C)cc3)cc2O)n[nH]c1C(F)(F)F,Mycobacterium marinum,-,visual reading,-,MIC,-,>50 µg/mL
Cc1ccn2c(C(=O)NCc3ccc(N4CCN(c5ccc(OC(F)(F)F)cc5)[C@@H](C)C4)c(F)c3)c(Cl)nc2c1.Cl,Mycobacterium avium,-,fluorescence,-,inhibition,0.077 µM,85%
CCCCCCCCCCC(CCCCCCCCCC)NC(=O)NC(CCC(=O)O)(CCC(=O)O)CCC(=O)O,Mycobacterium abscessus,AAy-P-1,-,-,MIC,-,36 µg/mL
NNC(=O)COc1ccc(-c2n[nH]c(C(F)(F)F)c2-c2ccc(Cl)cc2)c(O)c1,Mycobacterium marinum,-,visual reading,-,MIC,-,>50 µg/mL
COc1ccc2oc(=O)n(-c3cccc(F)c3)c(=S)c2c1,Mycobacterium kansasii,My 235/80,-,14 d,MIC,-,32 µM
CCc1nc2ccc(Cl)cn2c1C(=O)NCc1ccc(N2CCN(c3ccc(OC(F)(F)F)cc3F)[C@@H](CC)C2)c(F)c1.Cl,Mycobacterium avium,-,fluorescence,-,inhibition,0.023 µM,85%
Cc1nc2ccc(Br)cn2c1C(=O)NCc1ccc(N(C)C)cc1,Mycobacterium ulcerans,-,fluorescence,-,MIC50,-,0.01–0.1 µg/mL
CCCCCc1ccc(NC(=O)NNC(=O)c2ccncc2)cc1,Mycobacterium kansasii,My 235/80,broth dilution,7 d,MIC100,-,32 µM
Cc1cn2c(C(=O)NCc3ccc(N4CCN(c5ccc(OC(F)(F)F)cc5)C(C)(C)C4)c(F)c3)c(C)nc2s1,Mycobacterium avium,-,fluorescence,-,inhibition,0.19 µM,85%
Fc1ccc2oc(=S)n(-c3ccc(Cl)cc3)c(=S)c2c1,Mycobacterium kansasii,6509/96,-,21 d,MIC,-,4 µM
CCCCCCCCC(CCCCCCCC)NC(=O)NC(CCC(=O)O)(CCC(=O)O)CCC(=O)O,Mycobacterium chelonae,EO-P-1,-,-,MIC,-,144 µg/mL
CCc1nc2ccc(Cl)cn2c1C(=O)NCc1ccc(OC2CCC(Oc3ccc(OC(F)(F)F)cc3)CC2)c(F)c1.Cl,Mycobacterium avium,-,fluorescence,-,inhibition,0.15 µM,85%
O=C(NNC(=O)c1ccncc1)Nc1cc(Cl)cc(Cl)c1,Mycobacterium kansasii,My 235/80,broth dilution,21 d,MIC100,-,125 µM
COc1ccc(-c2c(-c3ccc(OCc4ccc(C)cc4)cc3O)n[nH]c2C(F)(F)F)cc1OC,Mycobacterium marinum,-,visual reading,-,MIC,-,50 µg/mL
COc1ccc(/C=N/n2c(C)nn(Cc3cn(CCCCCCn4cc(Cn5nc(C)n(/N=C/c6ccc(OC)cc6)c5=O)nn4)nn3)c2=O)cc1,Mycobacterium luteus,-,agar diffusion,-,zone,20 mg/mL,0.6 mm
CCOc1ccc(N2CCC(c3ccc(CNC(=O)c4c(CC)nc5ccc(Cl)cn45)cc3F)CC2)cc1.Cl,Mycobacterium avium,-,fluorescence,-,inhibition,0.019 µM,85%
Cc1nc2ccc(Cl)cn2c1C(=O)NCc1ccc(OC(F)(F)F)cc1,Mycobacterium ulcerans,-,fluorescence,-,MIC50,-,0.1–1 µg/mL
Fc1cc(F)c(B2Oc3ccccc3O2)c(F)c1,Mycobacterium luteum,-,turbidity,-,MIC,-,62.5 µg/mL
CO[C@H]1/C=C/O[C@@]2(C)Oc3c(C)c(O)c4c(O)c(c(/C=N/N5CCN(C6CCCC6)CC5)c(O)c4c3C2=O)NC(=O)/C(C)=C\C=C\[C@H](C)[C@H](O)[C@@H](C)[C@@H](O)[C@@H](C)[C@H](OC(C)=O)[C@@H]1C,Mycobacterium avium intracellulare,LYN,-,-,MIC,-,2 µg/mL
OB(O)c1ccccc1,Mycobacterium luteum,-,turbidity,-,MIC,-,250 µg/mL
COc1ccc2oc(=O)n(-c3ccc(Br)cc3)c(=S)c2c1,Mycobacterium kansasii,6509/96,-,21 d,MIC,-,32 µM
CCCCCCCCCCCCCCCCCCC(=O)NC(C)(CCC(=O)O)CCC(=O)O,Mycobacterium chelonae,EO-P-1,-,-,MIC,-,9 µg/mL
CC[C@H]1OC(=O)[C@H](C)[C@@H](O[C@H]2C[C@@](C)(OC)[C@@H](O)[C@H](C)O2)[C@H](C)[C@@H](O[C@@H]2O[C@H](C)C[C@H](N(C)C)[C@H]2O)[C@](C)(OC)C[C@@H](C)C(=O)[C@H](C)[C@@H](O)[C@]1(C)O,Mycobacterium avium complex,N-314 (HIV-),-,-,MIC,-,2 µg/mL
CC(=O)c1ccc(B(O)O)cc1,Mycobacterium luteum,-,turbidity,-,MIC,-,15.6 µg/mL
CO[C@H]1/C=C/O[C@@]2(C)Oc3c(C)c(O)c4c(=O)c(c5oc6cc(N7CCN(CC(C)C)CC7)cc(=O)c6nc5c4c3=C2O)NC(=O)/C(C)=C\C=C\[C@H](C)[C@H](O)[C@@H](C)[C@@H](O)[C@@H](C)[C@H](OC(C)=O)[C@@H]1C,Mycobacterium ulcerans,Isolate 8756,-,-,MBC,-,0.025 µg/mL
COc1ccc(-c2c(-c3ccc(OC)c(C)c3O)n[nH]c2C(F)(F)F)cc1,Mycobacterium marinum,-,visual reading,-,MIC,-,>50 µg/mL
CCOC(=O)c1c(NC(=O)c2c(F)c(F)c(F)c(F)c2F)sc2c1CCNC2=O,Mycobacterium abscessus,bolletii 103,resazurin / turbidity,-,EC50,-,>200 µM
CC(C)NC/C=C/CN(C/C=C/CNC(C)C)C(C)C,Mycobacterium smegmatis,ATCC 607,-,-,inhibition,1000 µg/mL,0%
NC(=O)c1c(NC(=O)c2c(F)c(F)c(F)c(F)c2F)sc2c1CCOC2,Mycobacterium abscessus,-,turbidity,-,EC50,-,68 µM
CCc1nc2ccc(Cl)cn2c1C(=O)NCc1ccc(N2CC=C(c3ccc(OC(F)(F)F)cc3)CC2)c(F)c1.Cl,Mycobacterium avium,-,fluorescence,-,inhibition,0.011 µM,85%
CC(C)c1ccc(NC(=O)NNC(=O)c2ccncc2)cc1,Mycobacterium kansasii,My 6509/96,broth dilution,14 d,MIC100,-,8 µM
CCc1cc(C(N)=S)ccn1,Mycobacterium avium complex,31 strains,broth dilution,-,EC50,-,>2.5 µg/mL
CC(C)N[C@@H](C)[C@@H](C)NC(C)C,Mycobacterium smegmatis,ATCC 607,-,-,EC50,-,>1000 µg/mL
CO[C@H]1/C=C/O[C@@]2(C)Oc3c(C)c(O)c4c(O)c(c5c(c4c3C2=O)NC2(CCN(CC(C)C)CC2)N=5)=NC(=O)/C(C)=C\C=C\[C@H](C)[C@H](O)[C@@H](C)[C@@H](O)[C@@H](C)[C@H](OC(C)=O)[C@@H]1C,Mycobacterium avium complex,N-265 (HIV-),-,-,MIC,-,0.4 µg/mL
CCOC(=O)C[C@H](NC(=O)Nc1ccc(Cl)cc1)C1O[C@@H]2OC(C)(C)O[C@@H]2[C@H]1Oc1ccccc1,Mycobacterium aurum,-,-,-,MIC,-,>25 µg/mL
CCCCCCCCCC(CCCCCCCCC)NC(=O)NC(CCC(=O)O)(CCC(=O)O)CCC(=O)O,Mycobacterium chelonae,EO-P-1,-,-,MIC,-,108 µg/mL
CCCCCCCC/C=C\CCCCCCCCN1C(=O)N(Cc2ccccc2)C(=O)C[C@H]1C1OC2OC(C)(C)OC2[C@H]1Oc1ccccc1,Mycobacterium aurum,-,-,-,MIC,-,>25 µg/mL
Clc1ccc(Nc2nnc(-c3ccncc3)o2)cc1Cl,Mycobacterium kansasii,My 235/80,broth dilution,14 d,MIC100,-,>125 µM
OB1OCc2cc(F)ccc21,Mycobacterium luteum,-,turbidity,-,MIC,-,1.9 µg/mL
CCc1nc2cc(Cl)ccn2c1C(=O)NCc1ccc(N2CCN(c3ccc(OC(F)(F)F)cc3)[C@@H](C)C2)c(F)c1,Mycobacterium avium,-,fluorescence,-,inhibition,0.026 µM,85%
CCCCCCc1ccc(NC(=O)NNC(=O)c2ccncc2)cc1,Mycobacterium kansasii,My 235/80,broth dilution,21 d,MIC100,-,125 µM
CC(C)CNCCNCC(C)C,Mycobacterium smegmatis,ATCC 607,-,-,EC50,-,>250 µg/mL
C[C@@H]1CN(c2c(F)c(N)c3c(=O)c(C(=O)O)cn(C4CC4)c3c2F)C[C@H](C)N1,Mycobacterium avium complex,N-978 (HIV+),-,-,MIC,-,0.5 µg/mL
S=c1oc2ccc(Br)cc2c(=S)n1-c1ccc(Br)cc1,Mycobacterium kansasii,My 235/80,-,14 d,MIC,-,4 µM
CC(C)N(C)CCN(C)C(C)C,Mycobacterium smegmatis,ATCC 607,-,-,inhibition,250 µg/mL,0%
COc1ccc(CNC(=O)c2c(Cl)nc3ccccn23)cn1,Mycobacterium ulcerans,-,fluorescence,-,MIC50,-,1–10 µg/mL
CCCCCCCCc1ccc(NC(=O)NNC(=O)c2ccncc2)cc1,Mycobacterium kansasii,My 6509/96,broth dilution,14 d,MIC100,-,250 µM
CC1(C)N=C(N)N=C(N)N1OCCCOc1cc(Cl)c(Cl)cc1Cl,Mycobacterium avium complex,DW11,-,-,MIC,-,2 µg/mL
CCCCC(C)NCCNC(C)CCCC,Mycobacterium smegmatis,ATCC 607,-,-,inhibition,500 µg/mL,100%
CCCCCCCN1C(=O)N(Cc2ccccc2)C(=O)C[C@H]1C1OC2OC(C)(C)OC2[C@H]1OC,Mycobacterium aurum,-,-,-,MIC,-,>25 µg/mL
CC1COc2c(N3CCN(C)CC3)c(F)cc3c(=O)c(C(=O)O)cn1c23,Mycoplasma hominis,20 strains,-,-,MIC90,-,0.5 µg/mL
CCc1nc2ccc(Cl)cn2c1C(=O)NCc1ccc(N2CCN(c3ccc(OC(F)(F)F)cc3)C3(CCCC3)C2)c(F)c1,Mycobacterium avium,-,fluorescence,-,inhibition,0.086 µM,85%